Among the data in patent publication US8829030B2 (priority 2002, dated 2014) are IC50 values, retold here.

By UniProt entry, the sequences of proteins in these tests, tags left out. Residues count along the entry.
UniProt P26663, 2420-3010 limits assumed: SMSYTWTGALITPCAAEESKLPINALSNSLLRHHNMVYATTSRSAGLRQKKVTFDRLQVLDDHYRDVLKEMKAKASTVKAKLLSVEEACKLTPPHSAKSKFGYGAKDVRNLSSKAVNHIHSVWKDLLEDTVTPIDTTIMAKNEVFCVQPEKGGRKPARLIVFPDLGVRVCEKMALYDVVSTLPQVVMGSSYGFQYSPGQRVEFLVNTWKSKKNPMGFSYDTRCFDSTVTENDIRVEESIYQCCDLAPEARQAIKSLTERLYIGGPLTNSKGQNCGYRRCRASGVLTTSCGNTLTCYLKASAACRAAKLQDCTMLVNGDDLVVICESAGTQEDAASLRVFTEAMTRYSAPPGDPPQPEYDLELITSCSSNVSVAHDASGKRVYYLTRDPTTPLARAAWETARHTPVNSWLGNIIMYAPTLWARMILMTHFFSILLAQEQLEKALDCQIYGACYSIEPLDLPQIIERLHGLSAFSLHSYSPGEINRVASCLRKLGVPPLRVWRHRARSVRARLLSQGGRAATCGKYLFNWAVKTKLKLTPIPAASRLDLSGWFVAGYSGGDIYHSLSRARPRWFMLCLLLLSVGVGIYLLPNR

The match of structure and compound is tentative.

This assay has as its target recombinant HCV RNA-dependent RNA polymerase (NS5B protein) (Hepatitis C virus genotype 1b, UniProt P26663). Description: In vitro HCV RdRp Flashplate scintillation proximity assay (STREP-FLASH ASSAY). Type of assay: biochemical, HCV-Bk strain. The following applies: read-out: Activity (polymerase activity, IC50). Background: Scintillation proximity formats need no separation of bound from free tracer.

Turning to `CC1CCC(F)(C(=O)N(c2cc(-c3ccccc3)sc2C(=O)O)C(C)C)CC1` (stereo not drawn) [Compound 9, Trans-3-[(1-Fluoro-4-methyl-cyclohexanecarbonyl)-isopropyl-amino]-5-phenyl-thiophene-2-carboxylic acid], the IC50 is more than 20 µM.

What is called IC50 is the point on the concentration scale where inhibition reaches its midpoint.
